Results of unrelated studies side by side (data: NIAID ChemDB).

Common to all: tests in culture; organism: Mycobacterium tuberculosis

a–b is a range or a potency band.

structure,strain,cells,read by,setting,measure,dose,value
Cc1nc2c(=O)[nH]n(C)c2nc1C,H37Rv,,BACTEC,,MIC bound,,>12.5 µg/mL
NNC(=O)Cc1ccc(Cl)cc1,,,,,MIC,,200 µg/mL
O=C(Nc1ccc(Cl)c(Cl)c1)c1cc(F)ccc1O,CNCTC MY331/88,,,,MIC,,4 µM
COc1ccc(Sc2ncnc3nc[nH]c23)c(OC)c1,H37Ra,,,,MIC,,>12.8 µg/mL
O=C(Nc1cccc(Cl)c1)c1cc(Br)ccc1O,CNCTC MY331/88,,,,MIC,,4 µM
CO[C@H]1/C=C/O[C@@]2(C)Oc3c(C)c(O)c4c(O)c(c(/C=N/N5CCN(C)CC5)c(O)c4c3C2=O)NC(=O)/C(C)=C\C=C\[C@H](C)[C@H](O)[C@@H](C)[C@@H](O)[C@@H](C)[C@H](OC(C)=O)[C@@H]1C,H37Ra,,,,MIC,,0.025 µg/mL
O=C(NN1C(=O)c2ccccc2C1=O)c1cc(O)cc(O)c1,H37Ra,,resazurin,,MIC50,,>50 µg/mL
Clc1nc(Sc2ccccn2)c2[nH]cnc2n1,H37Rv,,,,MIC90,,>6.25 µg/mL
O=C1OC2CCCCC2OC2CCCCC12,,,,,MIC,,0.25 µg/mL
O=C(NN=C1CCCCC1)c1ccncc1,H37Rv,,,,MIC,,0.03 µg/mL
CCOC(=O)CSc1nc(N)c2c3c(sc2n1)CCCC3,H37Rv,,MTT,,MIC,,5 µM
CCCCCCCC/C=C\CCCCCCCC(=O)NNC(=O)c1ccncc1,ATCC 35822 INHr,,resazurin,,MIC100,,1.56 µg/mL
C[C@]1(COc2ccc(N3CCC(Oc4ccc(OC(F)(F)F)cc4)CC3)cc2)Cn2cc([N+](=O)[O-])nc2O1,TU-26,,,,MIC,,0.012 µg/mL
Cc1cc(C(=O)N=Nc2c(O)[nH]c3ccc(Br)cc23)n[nH]1,H37Ra,,resazurin,,MIC50,,>50 µg/mL
O=c1nc(SCc2ccncc2)c2[nH]cnc2[nH]1,H37Rv,,,,inhibition,6.25 µg/mL,41%
NNC(=O)c1ccc(Nc2ccc(-c3ccccc3)cc2)cc1,,,,,MIC,,>40 µg/mL
CCOc1ccc(C(=O)O)cc1,H37Rv,,,,MIC,,500 µM
Cc1cc(C)c2ccc(NN=O)nc2n1,H37Rv,,BACTEC,,MIC,,≥12.5 µg/mL
O=C(Nc1ccc(Cl)cc1)c1ccccc1O,CNCTC MY331/88,,,,MIC,,31 µM
CC[C@@H](CO)NCCN[C@@H](CC)CO,H37Ra,,,,MIC,,1.88 µg/mL
CC(=O)C1=C(C)O/C(=C\c2cccc(Cl)c2)C1=O,H37Rv,,BACTEC,,inhibition,12.5 µg/mL,-2%
CO[C@H]1/C=C/O[C@@]2(C)Oc3c(C)c(O)c4c(O)c(c(/C=N/N5CCN(C6CCCC6)CC5)c(O)c4c3C2=O)NC(=O)/C(C)=C\C=C\[C@H](C)[C@H](O)[C@@H](C)[C@@H](O)[C@@H](C)[C@H](O)[C@@H]1C,H37Rv,,,,MIC,,0.25 µg/mL
CCOc1cc(Cc2cnc(N)nc2N)cc(OCC)c1-n1cccc1,10 strains (isoniazid- rifampin-susceptible),,,,MIC,,≥256 µg/mL
Cc1c2c(c(C)c3c4c(oc13)CCCC4)C=NCC2,H37Rv,VERO,resazurin,,MIC,,0.78 µg/mL
O=C(NNC1=NS(=O)(=O)c2ccccc2N1c1ccccc1)c1ccncc1,H37Rv (ATCC 27294),,,,MIC,,>16 µg/mL
O=C1Nc2ccccc2/C1=N/N=C/c1ccccc1[N+](=O)[O-],H37Rv,,resazurin,,MIC50,,>50 µg/mL
CC1=NN(C(=O)c2ccncc2)C(=O)C1N=Nc1ccc(S(=O)(=O)Nc2nc(C)cc(C)n2)cc1,H37Rv,,BACTEC,,inhibition,12.8 µg/mL,40%
COC1CCCC(OC2CCCCC2OC)C1,,,,,MIC,,>0.13 µg/mL
Cc1ccc(CSc2nc(=O)[nH]c3nc[nH]c23)cc1,H37Rv,,,,MIC90,,>6.25 µg/mL
CC(C)Oc1ccc(C(=O)O)cc1,H37Rv,,,,MIC,,31 µM
COc1cccc2c1C(=O)c1c(O)c3c(c(O)c1C2=O)C[C@@](O)(/C(C)=N/NC(=O)c1ccc(Cl)c(Cl)c1)C[C@H]3O[C@H]1C[C@H](N)[C@H](O)[C@H](C)O1,ETA-R,,,,MIC,,12.5 µg/mL
CCN1C(NNC(=O)c2ccncc2)=NS(=O)(=O)c2ccccc21,H37Rv (ATCC 27294),,,,MIC,,>16 µg/mL
NNC(=O)c1ccc(NS(=O)(=O)c2ccccc2)cc1,,,,,MIC,,>40 µg/mL
c1ccc(Oc2cccc3c2CCCN3)cc1,,,,,MIC,,>0.05 µg/mL
CCC(C)c1cnc(CC(C)C)c(=O)[nH]1,H37Rv,,BACTEC,,inhibition,12.5 µg/mL,-3%
CC(=O)Nc1c(OC(C)=O)nc2ccc(Cl)cc2c1-c1ccccc1,H37Rv,,,,EC50,,>6.25 µg/mL
OC1CC(O)CC(OC2CCCCC2)C1,,,,,MIC,,0.06 µg/mL
CCCCC1(C(NC(=O)c2ccccc2Cl)c2ccncc2)C(=O)N(c2ccccc2)N(c2ccccc2)C1=O,H37Rv,,BACTEC,,inhibition,12.5 µg/mL,7%
CN1C(NNC(=O)c2cnccn2)=NS(=O)(=O)c2ccc(Cl)cc21,Clinical isolates drug-resistant,,,,MIC,,>16 µg/mL
O=c1nc(SCc2cccnc2)c2[nH]cnc2[nH]1,H37Ra,,,,MIC,,>12.8 µg/mL
O=C(Nc1cccc([N+](=O)[O-])c1)c1cc([N+](=O)[O-])ccc1O,CNCTC MY331/88,,,,MIC,,31 µM
CCCNc1nc2c(c(=O)n1-c1ccccc1)C=C(C(=O)OC)CCN2S(=O)(=O)c1ccc(C)cc1,H37Rv,,BACTEC,,inhibition,12.5 µg/mL,-7%
O=C(N=Nc1c(O)[nH]c2ccccc12)c1ccc([N+](=O)[O-])cc1Cl,H37Ra,,resazurin,,MIC50,,>50 µg/mL
CN1C(NNC(=O)c2ccncc2)=NS(=O)(=O)c2ccccc21,Clinical isolates drug-sensitive,,,,MIC,,>16 µg/mL
CC(=O)Nc1c(OC(C)=O)nc2ccc([N+](=O)[O-])cc2c1-c1ccccc1,H37Rv,,,,EC50,,>6.25 µg/mL
CC1(C)CC(N=c2cc3n(-c4cc(Cl)c(Cl)c(Cl)c4)c4ccccc4nc-3cc2Nc2cc(Cl)c(Cl)c(Cl)c2)CC(C)(C)N1,H37Rv,Macrophages,,inside macrophages,EC50,,<0.005 µg/mL
Cc1nc2c(-c3ccccc3)c3cc(Cl)ccc3nc2o1,H37Rv,,,,EC50,,>6.25 µg/mL
CN1C(NC(=O)c2ccc(Cl)nc2)=NS(=O)(=O)c2cc(Cl)ccc21,Clinical isolates drug-resistant,,,,MIC,,>16 µg/mL
CC[C@H]1OC(=O)[C@H](C)[C@@H](O[C@H]2C[C@@](C)(OC)[C@@H](O)[C@H](C)O2)[C@H](C)[C@@H](O[C@@H]2O[C@H](C)C[C@H](N(C)C)[C@H]2O)[C@](C)(OC)C[C@@H](C)C(=O)[C@H](C)[C@@H](O)[C@]1(C)O,H37Ra,,,,MIC,,1 µg/mL
COc1ccc(N=C2C(=S)N(c3ccc(OC)cc3)/C(=N\S(=O)(=O)c3ccccc3)N2c2ccccc2)cc1,H37Rv,,BACTEC,,MIC bound,,>12.5 µg/mL
O=C1c2cccc([N+](=O)[O-])c2C(=O)N1c1cccc(O)c1,H37Ra,,resazurin,,MIC50,,>50 µg/mL
C=CCOc1ccc(C(=O)O)cc1,H37Rv,,,,MIC,,500 µM
c1ccc(CSc2ccccn2)cc1,H37Ra,,,,MIC,,>12.8 µg/mL
Nc1c(-c2ccccc2)c2cc([N+](=O)[O-])ccc2[nH]c1=O,H37Rv,,,,MIC,,>6.25 µg/mL
COc1c(Cc2ccc(Oc3ccccc3)cc2)cc2c(c1OC)CCNC2,,,,,MIC,,0.13 µg/mL
CC(=O)Nc1c(-c2ccccc2)c2cc(Cl)ccc2n(C)c1=O,H37Rv,,,,MIC,,>6.25 µg/mL
CCc1cc(C(N)=S)ccn1,H37Ra,,,,MIC,,1.25 µg/mL
CC(O)CSc1nc(N)c2c3c(sc2n1)CC(C)CC3,H37Rv,,MTT,,MIC,,160 µM
CN1CCCc2c(Oc3ccccc3)cccc21,,,,,MIC,,>0.14 µg/mL
NC1=NC(=O)/C(=C/C=C/c2ccc([N+](=O)[O-])o2)S1,H37Rv,,MTT,,MIC,,9 µM
Cc1ccc(O)c(C(=O)Nc2ccc(C#N)cc2)c1,CNCTC MY331/88,,,,MIC,,500 µM
COc1cccc(/C=N/NC(=O)c2ccccc2Cl)c1,,,,,MIC,,1–10 µg/mL
c1ccc(C2=NN=C3C(c4ccccc4)=Nc4ccccc4N3C2)cc1,,,,,MIC,,100 µg/mL
CCCCCCC/C=C\CCCCCCCC(=O)NN,ATCC 35822 INHr,,resazurin,,MIC100,,>100 µg/mL
Cc1ccc(C)c(CSc2nc(=O)[nH]c3nc[nH]c23)c1,H37Rv,,,,MIC90,,>6.25 µg/mL
CCC(C)[C@]1(O)O[C@@H]2C[C@]3(C)OC(=CC3=O)/C(C)=C\[C@@H]3OC(=O)[C@]1(C)[C@@H]32,H37Rv,,BACTEC,,MIC bound,,>12.5 µg/mL
CC(C)(C)C1CCc2c(sc3nc(=S)[nH]c(N)c23)C1,H37Rv,,MTT,,MIC,,160 µM
O=C(N=Nc1c(O)[nH]c2ccccc12)c1cccnc1,H37Ra,,resazurin,,MIC50,,>50 µg/mL
N#CC1=C(c2ccccc2)C(=C2Nc3ccccc3N2)C2S/C(=C\c3ccccc3)C(=O)N2C1=N,H37Rv,,resazurin,,MIC bound,,>6.25 µg/mL
COc1ccc(C=NN2C(=O)c3ccccc3C2=O)cc1OC,H37Rv,,resazurin,,MIC50,,>50 µg/mL
NNC(=O)c1ccncc1,ATCC 35822 INHr,,resazurin,,MIC100,,2 µg/mL
O=C(OC1CCCCC1)c1cc(NC(=S)c2ccsc2)ccc1Cl,H37Rv,,BACTEC,,MIC bound,,>12.5 µg/mL
CO[C@H]1/C=C/O[C@@]2(C)Oc3c(C)c(O)c4c(O)c(c(/C=N/N5CCN(C/C=C/c6ccccc6)CC5)c(O)c4c3C2=O)NC(=O)/C(C)=C\C=C\[C@H](C)[C@H](O)[C@@H](C)[C@@H](O)[C@@H](C)[C@H](OC(C)=O)[C@@H]1C,Watanabe,,,,MIC,,25 µg/mL
O=C(O)C1CCCCC1OC1CCCCC1O,,,,,MIC,,0.5 µg/mL
COC(=O)[C@H]1[C@H](O)[C@H](C)[C@@H](O)[C@@H](C)/C=C(\C)C2=C3C(=C(C)C(=O)c4c(O)c(c(C)c(OC(C)=O)c43)NC(=O)/C(C)=C/C=C\[C@@H](C)C(O)[C@@H](C)[C@H]1O)OCO2,H37Rv,,BACTEC,,inhibition,12.8 µg/mL,94%
OC1CCC(O)C(OC2CCCCC2)C1,,,,,MIC,,0.25 µg/mL
COc1cccc2c1C(=O)c1c(O)c3c(c(O)c1C2=O)CC(O)(C(C)=O)CC3OC1CC(NCC2(O)OC(C(=O)NCCCN(C)C)C(O)C2O)C(O)C(C)O1,H37Rv,,BACTEC,,inhibition,12.5 µg/mL,99%
CC(=O)Nc1ccc2c(c1)[nH]c1ncc(Nc3ccccc3)cc12,H37Rv,,resazurin,,MIC,,8 µg/mL
Nc1nc2c(C(=O)NCc3cccs3)nnn2c2cccc(Cl)c12,H37Rv,,BACTEC,,inhibition,12.5 µg/mL,8%
O=C(NNC1=NS(=O)(=O)c2ccccc2N1c1ccccc1)c1cnccn1,Clinical isolates drug-sensitive,,,,MIC,,8–16 µg/mL
Clc1ccccc1/C=N/Nc1nc2ccccc2nc1-c1ccccc1,,,,,MIC,,>100 µg/mL
Cc1cc(C(=O)O)c(C(N)=O)c(Cl)n1,H37Rv,,BACTEC,,inhibition,12.5 µg/mL,0%
CCCOc1ccc(C(=O)O)cc1,H37Rv,,,,MIC,,61 µM
C/C(=N/NC(=S)NCc1ccccc1)c1nccnc1C,H37Rv,,BACTEC,,inhibition,12.5 µg/mL,100%
CC(C)(C)C1CCc2c(sc(NC(=S)NC(=O)c3ccccc3)c2C#N)C1,H37Rv,,MTT,,MIC,,31 µM
CC(=O)OC1CCC2(C)C(CC(=O)OC3C2CCC2(C)C(OC(C)=O)CCC32)C1,H37Rv,,BACTEC,,inhibition,12.5 µg/mL,15%
O=C(N/N=C/c1c(Cl)cccc1Cl)c1ccccc1Cl,,,,,MIC,,>40 µg/mL
Cc1cc(O)c2c(c1)C(=O)C(c1c(C)cc3c(c1O)C(=O)C1OC1C3=O)=CC2=O,TAC-R,,,,MIC,,0.8 µg/mL
O=C(NNC1=NS(=O)(=O)c2ccccc2N1c1ccccc1)c1cccnc1,H37Rv (ATCC 27294),,,,MIC,,>16 µg/mL

A second listing of 8 rows from above:

structure	strain	cells	read by	setting	measure	dose	value
CC(=O)Nc1ccc2c(c1)[nH]c1ncc(Nc3ccccc3)cc12	H37Rv		resazurin		MIC		8 µg/mL
O=C(Nc1cccc([N+](=O)[O-])c1)c1cc([N+](=O)[O-])ccc1O	CNCTC MY331/88				MIC		31 µM
COc1ccc(C=NN2C(=O)c3ccccc3C2=O)cc1OC	H37Rv		resazurin		MIC50		>50 µg/mL
CC[C@@H](CO)NCCN[C@@H](CC)CO	H37Ra				MIC		1.88 µg/mL
CCc1cc(C(N)=S)ccn1	H37Ra				MIC		1.25 µg/mL
COc1cccc(/C=N/NC(=O)c2ccccc2Cl)c1					MIC		1–10 µg/mL
O=C(N=Nc1c(O)[nH]c2ccccc12)c1cccnc1	H37Ra		resazurin		MIC50		>50 µg/mL
CC(C)(C)C1CCc2c(sc(NC(=S)NC(=O)c3ccccc3)c2C#N)C1	H37Rv		MTT		MIC		31 µM

MIC bound: limit read from a one-dose screen. An empty or dashed field is not shown. ECn is the concentration giving n% inhibition of infection, replication or growth. MIC50, MIC90 and the like: level of inhibition, or share of isolates inhibited. Percent inhibition refers to the dose given; in toxicity tests it is the harm to the cells. Rows are shuffled and stem from different studies.